# HIV-1 5' UTR: effect of mutations on RNA dimer formation

The measurements come from Ye et al. 2022 (doi:10.1038/s41594-022-00746-2).

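Randomly mutated transcripts starting with one, two or three G (1G, 2G, 3G), capped or uncapped, were folded for 30 min at 37 °C. Monomer and dimer bands were cut from native gels after folding in high salt (300 mM KCl, 5 mM MgCl2) or low salt (40 mM KCl, 0.1 mM MgCl2). Kdimer compares mutation frequencies in monomer and dimer, corrected for sequencing errors.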

Sequence of the HIV-1 NL4-3 5' RNA, positions 1 to 437, as numbered in the source:
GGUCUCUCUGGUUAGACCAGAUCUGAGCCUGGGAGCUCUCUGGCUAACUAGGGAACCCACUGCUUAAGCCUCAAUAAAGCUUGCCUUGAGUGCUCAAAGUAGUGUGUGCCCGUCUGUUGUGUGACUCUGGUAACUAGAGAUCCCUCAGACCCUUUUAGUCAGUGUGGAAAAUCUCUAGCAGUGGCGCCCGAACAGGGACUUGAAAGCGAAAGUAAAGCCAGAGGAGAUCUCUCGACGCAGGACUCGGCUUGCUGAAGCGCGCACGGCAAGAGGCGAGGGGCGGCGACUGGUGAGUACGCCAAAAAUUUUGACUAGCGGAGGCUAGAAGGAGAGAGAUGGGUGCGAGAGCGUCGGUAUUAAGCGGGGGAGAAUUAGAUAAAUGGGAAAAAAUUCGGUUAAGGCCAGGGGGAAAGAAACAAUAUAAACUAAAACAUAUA

Values are log2 Kdimer, the median over the changes at each position: higher means that changes there hinder dimer formation, below 0 that they favour it. One numbering serves 1G, 2G and 3G. A position is written with its base.

position | domain | 3G uncapped high-salt | 3G uncapped low-salt
U159 | PBS | -0.15 | -0.03
C160 | PBS | -0.20 | -0.26
A161 | PBS | 0.05 | 0.11
G162 | PBS | -0.11 | -0.45
U163 | PBS | 0.02 | 0.15
G164 | PBS | -0.06 | 0.09
U165 | PBS | -0.06 | 0.03
G166 | PBS | 0.18 | -0.14
G167 | PBS | 0.27 | 0.29
A168 | PBS | 0.03 | 0.38
A169 | PBS | 0.02 | 0.05
A170 | PBS | -0.01 | 0.03
A171 | PBS | 0.15 | 0.33
U172 | PBS | 0.24 | 0.30
C173 | PBS | -0.15 | -0.46
U174 | PBS | 0.01 | -0.65
C175 | PBS | -0.02 | -0.37
U176 | PBS | -0.07 | 0.03
A177 | PBS | 0.16 | -0.43
G178 | PBS | 0.38 | 0.22
C179 | PBS | -0.09 | -0.36
A180 | PBS | 0.11 | -0.21
G181 | PBS | -0.27 | -0.77
U182 | PBS | 0.07 | 0.78
G183 | PBS | 0.16 | -0.03
G184 | PBS | 0.34 | 0.89

Excerpt, the final 2 entries:

- G183 (domain PBS) = 3G uncapped high-salt 0.16; 3G uncapped low-salt -0.03
- G184 (domain PBS) = 3G uncapped high-salt 0.34; 3G uncapped low-salt 0.89